From publication PMC6152618 (Molecules : A Journal of Synthetic Chemistry and Natural …, 2017)
Where a sequence shows no end group, the ends are not given.

Experiment: general procedure: Fmoc solid-phase peptide synthesis; Rink amide resin (150 mg, 0.46 meq/g); DCC/6-Cl-HOBt
Conditions: whole synthesis, scale of the general procedure 150 mg resin

Q: For (FKARRWQWRMKKLGA)2K-Ahx-C, which isolated yield is on record?
A: Its isolated yield is 18%.

Q: With CRRWQWRMKKLGA as the substance, how does the isolated yield read?
A: Its isolated yield is 25%.

Q: For FKARRWQWRMKKLGA, which isolated yield is on record?
A: The isolated yield was 20%.

Q: For FKCRRWQWR, which isolated yield is on record?
A: Its isolated yield is 11%.

Q: Which isolated yield does the source give for FKCRRWQWRM here?
A: The isolated yield was 7%.

Q: For FKCRRWQWRMK, which isolated yield is on record?
A: The isolated yield was 13%.

Q: Which isolated yield does the source give for FKCRRWQWRMKK here?
A: Its isolated yield is 5%.

Q: For FKCRRWQWRMKKL, which crude yield is on record?
A: The crude yield was 60%.

Q: What about the isolated yield of the same substance?
A: The isolated yield was 5%.

Q: With FKCRRWQWRMKKLG as the substance, how does the isolated yield read?
A: Its isolated yield is 12%.

Q: With FKCRRWQWRMKKLGA as the substance, how does the isolated yield read?
A: Its isolated yield is 16%.

Q: With KCRRWQWRMKKLGA as the substance, how does the isolated yield read?
A: Its isolated yield is 10%.

Q: Which isolated yield does the source give for RRWQWRMKKLGA here?
A: The isolated yield was 9%.

Q: Which isolated yield does the source give for RWQWRWQWR here?
A: Its isolated yield is 30%.
